Pooled drug test results. Numbers come from NIAID ChemDB, via PubChem.

All rows: whole-cell or culture tests; species: HIV-1

ECn is the concentration giving n% inhibition of infection, replication or growth. Neighbouring rows are from separate reports. Blank or dashed fields: not listed here.

compound | setting | cells | endpoint | changes | method | strain | value
CS(=O)(=O)c1ccc(CN2CCC(N=C3C=C(Cc4ccc(Cl)cc4Cl)NS(=O)(=O)N3)CC2)cc1 |  | MT-4 | EC50 |  | MTT | IIIB | 106 µM
Cc1ccnc2c1NC(=O)c1cccnc1N2C1CC1 |  | PBMC | EC90 |  | p24 / ELISA | BaL | 0.127 µM
N=C(CNC(=O)NCCCNc1ccc2[nH]ccc2c1)N[N+](=O)[O-] |  | MT-4 | EC50 |  | MTT | IIIB | >375 µM
COC(=O)[C@@H](NC(=O)[C@@H](NC(=O)CC[C@H](O)[C@H](Cc1ccccc1)NC(=O)[C@H](C)NC(=O)[C@H](C)NC(=O)OCc1ccccc1)C(C)C)C(C)C |  | MOLT-4 | EC50 |  | p24 | IIIB | <4.2 µM
COc1cc(O)ccc1CCCc1cc(O)c2c(c1CC=C(C)C)C=CC(C)(C)O2 |  | MT-4 | EC50 |  | cytopathic effect / MTT | IIIB | >20 µg/mL
N#Cc1cccc(-n2ccc(CN3CCN(C[C@@H](O)C[C@@H](Cc4cccnc4)C(=O)N[C@H]4c5ccccc5OC[C@H]4O)[C@H](C(=O)NCC(F)(F)F)C3)c2)c1 |  | MT-4 | EC50 | PR-L10I M46I I54V Q58E L63P I64V V77I V82F I84V L90M I93L | p24 | K-60C Clinical isolate | <0.062 µM
Cc1ccnc2c1NC(=O)c1cccnc1N2C1CC1 |  | CEM-GFP | EC50 |  | flow cytometry | NL4-3 | 0.000473 µM
CCNc1cccnc1N1CCN(C(=O)c2cc3cc(OC)ccc3[nH]2)CC1 |  | CEM | EC50 |  | syncytia | IIIB | 0.03 µg/mL
Cc1cn([C@H]2C[C@H](N=[N+]=[N-])[C@@H](CO)O2)c(=O)[nH]c1=O |  | CEM-GFP | EC50 |  | p24 / ELISA | NL4-3 | 0.000158 µM
c1cc2cc(NCCNC3=NCCCN3)ccc2[nH]1 |  | MT-4 | EC50 |  | MTT | IIIB | 24.76 µM
Cc1cn([C@H]2C[C@H](N=[N+]=[N-])[C@@H](CO)O2)c(=O)[nH]c1=O |  | PBMC | EC90 |  | p24 / ELISA | BaL | 0.128 µM
Cc1ccc(-n2ccc(CN3CCN(C[C@@H](O)C[C@@H](Cc4cccnc4)C(=O)N[C@H]4c5ccccc5OC[C@H]4O)[C@H](C(=O)NCC(F)(F)F)C3)c2)cc1 |  | MT-4 | EC50 | PR-L10I M36I N37D M46I R57K L63P A71V G73S I84V L90M I93L | p24 | V-18C Clinical isolate | <0.015 µM
C(CCC1CNCCNCCCNCCNC1)CCC1CNCCNCCCNCCNC1 | 4 d | MT-4 | EC50 |  | cytopathic effect / MTT | IIIB | 0.29 µM
CC(=O)c1ccc(C)cc1NC(C(N)=O)c1c(Cl)cccc1Cl |  | MT-4 | EC50 |  | cytopathic effect / MTT | IIIB | 0.0064 µM
O=C(N[C@H]1c2ccccc2OC[C@H]1O)[C@H](Cc1cccnc1)C[C@H](O)CN1CCN(Cc2ccn(-c3ccc(F)cc3)c2)C[C@H]1C(=O)NCC(F)(F)F |  | MT-4 | EC50 | PR-L10I M46I I54V Q58E L63P I64V V77I V82F I84V L90M I93L | p24 | K-60C Clinical isolate | <0.015 µM
N#Cc1ccc(CN2CCC(N=C3C=C(Cc4cccc5ccccc45)NS(=O)(=O)N3)CC2)cc1 |  | MT-4 | EC50 |  | MTT | IIIB | 31.45 µM
CCC(C)(C)c1c(O)cc(O)c2c(=O)c(O)c(-c3cc(O)c4c(c3CC=C(C)C)CCC(C)(C)O4)oc12 |  | MT-4 | EC50 |  | cytopathic effect / MTT | IIIB | >20 µg/mL
O=S1(=O)NC(Cc2ccc(Cl)cc2Cl)=CC(=NC2CCN(Cc3ccccc3)CC2)N1 |  | MT-4 | EC50 |  | MTT | IIIB | 26.97 µM
NCCCCNc1ccc2[nH]ccc2c1 |  | MT-4 | EC50 |  | MTT | IIIB | >19.23 µM
C1CNCCNCC(CCOCCOCCC2CNCCNCCCNCCNC2)CNCCNC1 | 5 d | MT-4 | EC50 |  | cytopathic effect / MTT | RF | 2.3 µM
Cc1cn([C@H]2C[C@H](N=[N+]=[N-])[C@@H](CO)O2)c(=O)[nH]c1=O |  | PBMC | EC50 |  | p24 | IIIB | 0.0083 µM
CC(C)(C)NC(=O)[C@@H]1CN(Cc2cccnc2)CCN1C[C@@H](O)C[C@@H](Cc1ccccc1)C(=O)N[C@H]1c2ccccc2C[C@H]1O |  | PBMC | EC90 |  | p24 / ELISA | BaL | 0.075 µM
Cc1c(-c2cnccn2)ssc1=S |  | CEM | EC50 |  | MTT / p24 | IIIB | ~14 µM
CC(C)(C)[Si](C)(C)OCC1OC(n2nncc2C(=O)NC2CC2)C(O[Si](C)(C)C(C)(C)C)C12OS(=O)(=O)C=C2N |  | MT-4 | EC50 |  | cytopathic effect | IIIB | 0.19 µM
CC(C)=CCc1cc(C(=O)/C=C/c2ccc(O)cc2)c(O)cc1O |  | MT-4 | EC50 |  | cytopathic effect / MTT | IIIB | >4 µg/mL
Nc1nc2c(ncn2[C@H]2C[C@H](O)[C@@H](CO)O2)c(=O)o1 | chronic infection | U-937/HIV-1(IIIB) + U-937 | EC50 |  | RT activity | IIIB | >100 µg/mL
CCOC(=O)c1cnnn1C1OC(COC(=O)c2ccccc2)C(OC(=O)c2ccccc2)C1F |  |  | EC50 |  |  |  | >100 µM
CN1C/C(=C\c2ccc(O)c([N+](=O)[O-])c2)C(=O)/C(=C/c2ccc(O)c([N+](=O)[O-])c2)C1 |  | MT-4 | EC50 |  | cytopathic effect / MTT |  | >25 µM
O=c1[nH]cnc2c1ncn2[C@H]1CC[C@@H](CO)O1 |  | CEM-GFP | EC50 |  | flow cytometry | NL4-3 | 0.0365 µM
C1CNCCCNCCCNC1 |  | MT-4 | EC50 |  | cytopathic effect / MTT | IIIB | >85 µM
[N-]=[N+]=N[C@@H]1O[C@@H](COC(=O)c2ccccc2)[C@H](OC(=O)c2ccccc2)[C@H]1F |  |  | EC50 |  |  |  | >100 µM
CC(C)=CCC/C(C)=C/Cc1cc(-c2cc(=O)c3c(O)cc(O)cc3o2)ccc1O |  | MT-4 | EC50 |  | cytopathic effect / MTT | IIIB | >40 µg/mL
O=C(N[C@H]1c2ccccc2OC[C@H]1O)[C@H](Cc1cccnc1)C[C@H](O)CN1CCN(Cc2ccn(-c3cccc(Cl)c3)c2)C[C@H]1C(=O)NCC(F)(F)F |  | MT-4 | EC95 | PR-L10I M36I N37D M46I R57K L63P A71V G73S I84V L90M I93L | p24 | V-18C Clinical isolate | ≤0.008 µM
NC(=O)c1cnnn1[C@@H]1O[C@@H](CO)[C@H](O)[C@H]1F |  |  | EC50 |  |  |  | >100 µM
CCCN(C)C(=O)Oc1nsnc1-c1c(Cl)ccc(N)c1Cl |  | PBMC | EC50 |  | cytopathic effect / MTT | IIIB | 0.068 µM
O=C1/C(=C/c2ccc(O)c([N+](=O)[O-])c2)CNC/C1=C\c1ccc(O)c([N+](=O)[O-])c1 |  | MT-4 | EC50 |  | cytopathic effect / MTT |  | >11 µM
CC(C)=CCc1c(O)cc2c(c1O)C(=O)CC(c1ccccc1)O2 |  | MT-4 | EC50 |  | MTT | IIIB | >100 µg/mL
CC(C)(C)[Si](C)(C)OCC1OC(n2nncc2C(=O)NC2CCC2)C(O[Si](C)(C)C(C)(C)C)C12OS(=O)(=O)C=C2N |  | MT-4 | EC50 |  | cytopathic effect | IIIB | 0.35 µM
O=C1Nc2ccc(Cl)cc2[C@@](C#CC2CC2)(C(F)(F)F)O1 |  | CEM-GFP | EC50 |  | flow cytometry | NL4-3 | 0.000008 µM
O=C(O)/C=C/c1ccc[c]([Sb](=[O])([OH])[OH])c1 |  | MAGI | EC50 |  | β-galactosidase | NL4-3 X4 | <20 µM
C1CNCCNCC(CCC2CNCCNCCCNCCNC2)CNCCNC1 | 5 d | MT-4 | EC50 |  | cytopathic effect / MTT | IIIB | 0.18 µM
CCc1cc(NCc2nc3c(Cl)ccc(Cl)c3o2)c(=O)[nH]c1C |  | CEM | EC50 | RT-V179N | syncytia | IIIB-Pyridinone(0.1)(RT-V179N | 0.2 µg/mL
Nc1nc2c(ncn2[C@H]2CC[C@@H](CO)O2)c(=O)o1 |  | CEM | EC50 |  | RT activity | IIIB | >500 µg/mL
O=C1C(=Cc2ccc(Cl)c(Cl)c2)CCCC1=Cc1ccc(Cl)c(Cl)c1 |  | MT-4 | EC50 |  | cytopathic effect / MTT |  | >120 µM
c1cc2cc(NCCCNC3=NCCCN3)ccc2[nH]1 |  | MT-4 | EC50 |  | MTT | IIIB | 19.69 µM
COc1cc2occ(-c3ccc(O)cc3)c(=O)c2c(O)c1CC=C(C)C |  | MT-4 | EC50 |  | MTT | IIIB | >100 µg/mL
CN(C)C(=O)c1cnnn1[C@@H]1O[C@H](CO[Si](C)(C)C(C)(C)C)C2(OS(=O)(=O)C=C2N)[C@H]1O[Si](C)(C)C(C)(C)C |  | MT-4 | EC50 |  | cytopathic effect | IIIB | 0.06 µM
CCOC(=O)c1oc2cc(O)cc(O)c2c(=O)c1Oc1ccccc1 |  | MT-4 | EC50 |  | cytopathic effect / MTT | IIIB | >100 µg/mL
O=C1/C(=C\c2cc(O)c(O)c(O)c2)Cc2ccccc21 |  | MT-4 | EC50 |  | cytopathic effect / MTT |  | >16 µM
CC(C)=CCc1c(O)ccc([C@@H]2COc3c(ccc4c3C=CC(C)(C)O4)C2)c1O |  | MT-4 | EC50 |  | MTT | IIIB | >100 µg/mL
CO[P@](=O)(c1cc(C)cc(/C=C/C#N)c1)c1c(C(N)=O)[nH]c2ccc(Cl)c(F)c12 |  | MT-4 | EC50 | WT | ELISA | NL4-3 | 0.002 µM
CC(C)=CCN1Cc2cc(Cl)cc3[nH]c(=S)n(c23)C[C@@H]1C |  | CEM | EC50 |  | syncytia | IIIB-TIBO(0.1) | 0.13 µg/mL
CN=C(N)NCCCNc1ccc2[nH]ccc2c1 |  | MT-4 | EC50 |  | MTT | IIIB | >144 µM
C1CNCCNCC(CCCC2CNCCNCCCNCCNC2)CNCCNC1 | 4 d | MT-4 | EC50 |  | cytopathic effect / MTT | RF | 0.1 µM
CC(C)NC(=O)c1cnnn1C1OC(CO[Si](C)(C)C(C)(C)C)C2(OS(=O)(=O)C=C2N)C1O[Si](C)(C)C(C)(C)C |  | MT-4 | EC50 |  | cytopathic effect | IIIB | 0.72 µM
CCCCCCCCCCCCCC(=O)OC[C@H](COP(=O)(O)OP(=O)(O)OC[C@@H]1CC[C@H](n2cc(C)c(=O)[nH]c2=O)O1)OC(=O)CCCCCCCCCCCCC |  | HT4 + HT4-6C | EC50 |  | plaque count | AZT-resistant A012D Clinical isolate | 20 µM
CN=C1CN=C(c2ccc[nH]2)c2cc(Cl)ccc2N1 |  | MOLT-4 | EC50 |  | cytopathic effect / MTT | IIIB | 0.053 µg/mL
Cc1cc(C#N)cc(C)c1Oc1nc(Nc2ccc(C#N)cc2)nc(N)c1Br |  | MT-4 | EC50 |  | MTT | IIIB | 0.0041 µM
CCc1cc(NCc2nc3c(Cl)ccc(Cl)c3o2)c(=O)[nH]c1C |  | PBMC | EC50 | RT-K70R | p24 | Clinical isolate (RT K70R) | <0.4 µM
Nc1nc2c(ncn2[C@H]2C=C[C@@H](CO)O2)c(=O)o1 | chronic infection | U-937/HIV-1(IIIB) + U-937 | EC50 |  | RT activity | IIIB | 13 µg/mL
O=C1/C(=C/c2ccc(O)c(O)c2)CC(C(=O)O)C/C1=C\c1ccc(O)c(O)c1 |  | MT-4 | EC50 |  | cytopathic effect / MTT |  | >42 µM
Nc1ccn([C@H]2CC[C@@H](CO)O2)c(=O)n1 |  | CEM | EC50 | RT-L100I | syncytia | IIIB-BHAP)(0.1)(RT-L100I | 0.05 µM
c1cc(CN2CCCNCCNCCCNCC2)ccc1CN1CCCNCCNCCCNCC1 |  | PBMC | EC50 |  | p24 | DJ258 CLADE A R5 | >0.5 µM
Nc1nc2c(ncn2[C@H]2CC[C@@H](CO)C2)c(=O)o1 |  | H9 | EC50 |  | RT activity | IIIB | 175 µg/mL

Again, the opening 9 rows:

{"compound": "CS(=O)(=O)c1ccc(CN2CCC(N=C3C=C(Cc4ccc(Cl)cc4Cl)NS(=O)(=O)N3)CC2)cc1", "cells": "MT-4", "endpoint": "EC50", "method": "MTT", "strain": "IIIB", "value": "106 µM"}
{"compound": "Cc1ccnc2c1NC(=O)c1cccnc1N2C1CC1", "cells": "PBMC", "endpoint": "EC90", "method": "p24 / ELISA", "strain": "BaL", "value": "0.127 µM"}
{"compound": "N=C(CNC(=O)NCCCNc1ccc2[nH]ccc2c1)N[N+](=O)[O-]", "cells": "MT-4", "endpoint": "EC50", "method": "MTT", "strain": "IIIB", "value": ">375 µM"}
{"compound": "COC(=O)[C@@H](NC(=O)[C@@H](NC(=O)CC[C@H](O)[C@H](Cc1ccccc1)NC(=O)[C@H](C)NC(=O)[C@H](C)NC(=O)OCc1ccccc1)C(C)C)C(C)C", "cells": "MOLT-4", "endpoint": "EC50", "method": "p24", "strain": "IIIB", "value": "<4.2 µM"}
{"compound": "COc1cc(O)ccc1CCCc1cc(O)c2c(c1CC=C(C)C)C=CC(C)(C)O2", "cells": "MT-4", "endpoint": "EC50", "method": "cytopathic effect / MTT", "strain": "IIIB", "value": ">20 µg/mL"}
{"compound": "N#Cc1cccc(-n2ccc(CN3CCN(C[C@@H](O)C[C@@H](Cc4cccnc4)C(=O)N[C@H]4c5ccccc5OC[C@H]4O)[C@H](C(=O)NCC(F)(F)F)C3)c2)c1", "cells": "MT-4", "endpoint": "EC50", "changes": "PR-L10I M46I I54V Q58E L63P I64V V77I V82F I84V L90M I93L", "method": "p24", "strain": "K-60C Clinical isolate", "value": "<0.062 µM"}
{"compound": "Cc1ccnc2c1NC(=O)c1cccnc1N2C1CC1", "cells": "CEM-GFP", "endpoint": "EC50", "method": "flow cytometry", "strain": "NL4-3", "value": "0.000473 µM"}
{"compound": "CCNc1cccnc1N1CCN(C(=O)c2cc3cc(OC)ccc3[nH]2)CC1", "cells": "CEM", "endpoint": "EC50", "method": "syncytia", "strain": "IIIB", "value": "0.03 µg/mL"}
{"compound": "Cc1cn([C@H]2C[C@H](N=[N+]=[N-])[C@@H](CO)O2)c(=O)[nH]c1=O", "cells": "CEM-GFP", "endpoint": "EC50", "method": "p24 / ELISA", "strain": "NL4-3", "value": "0.000158 µM"}